According to ChEMBL document CHEMBL1124922 (J Med Chem, 1990):

How the values were obtained:
Cricetulus griseus = species: Cricetulus griseus; test: Evaluated for hypersensitivity factor (HF) (HF = IC50 AA8 / IC50 UV-4) values are intra experiment ratios; format: functional
[1] = Evaluated for hypersensitivity factor for (HF = IC50 AA8 / IC50 UV-4 ) in hypoxic conditions using N2 (*=data unreliable.)
[2] = Evaluated for ratio of CT10 value. (CT10 = aerobic CT10 / hypoxic CT10)

Row | Structure (SMILES) | Ratio (Cricetulus griseus) | Ratio [1] | Ratio [2]
1 | O=[N+]([O-])c1ccc(N(CCBr)CCBr)cc1 | > 1 |  | 
2 | COc1cccc(N(CCCl)CCCl)c1 | 42 |  | 
3 | O=[N+]([O-])c1ccc(N(CCCl)CCCl)cc1 | > 5 | > 5 | 1.7
4 | CN(C)C(=O)c1cccc(N(CCCl)CCCl)c1 | > 20 |  | 
5 | Nc1ccccc1N(CCCl)CCCl |  | 28 | 
6 | Cc1ccc(N(CCCl)CCCl)cc1 | 46 |  | 1.9
7 | ICCN(CCI)c1ccccc1 | 42 |  | 
8 | Nc1ccc(N(CCCl)CCCl)cc1 | 25 |  | 1.27
9 | O=[N+]([O-])c1ccc(N(CCI)CCI)cc1 | > 1 |  | 
10 | O=Nc1ccc(N(CCCl)CCCl)cc1 | 8 | 19 | 
11 | CS(=O)(=O)c1cccc(N(CCCl)CCCl)c1 | 52 |  | 
12 | CN(C)C(=O)c1ccc(N(CCCl)CCCl)cc1 | 30 |  | 
13 | BrCCN(CCBr)c1ccccc1 | 41 |  | 
14 | O=[N+]([O-])c1cccc(N(CCCl)CCCl)c1 | > 1 | > 1 | 
15 | CS(=O)(=O)c1ccc(N(CCCl)CCCl)cc1 | 3.5 |  | 0.84
16 | Nc1cccc(N(CCCl)CCCl)c1 | 18 | 16 | 1.18
17 | CSc1ccc(N(CCCl)CCCl)cc1 |  |  | 1.2
18 | O=[N+]([O-])c1ccccc1N(CCCl)CCCl |  | 64 | 
19 | COc1ccc(N(CCCl)CCCl)cc1 | 42 |  | 1.4
